Anti-infective test results gathered from many reports (values: NIAID ChemDB through PubChem).

All rows: target-level tests; organism: Hepatitis C virus

ICn is the concentration giving n% inhibition. Percent inhibition refers to the dose given; in toxicity tests it is the harm to the cells. An empty or dashed field is not shown. Conditions beyond the fields shown may differ between rows. a–b is a range or a potency band.

SMILES | dose | read-out | protein | value
COc1cccc(-c2cc(-c3ccc(Cl)cc3)nc3cc(C(=O)O)nn23)c1 | - | IC50 | RNA-dependent RNA polymerase | >10 µM
O=C(O)c1ccc2c(c1)nc(-c1ccc3nc(-c4cc5c(cc4-c4ccc(Cl)cc4)OCCCO5)ccc3c1)n2C1CCCCC1 | 33 µM | inhibition | NS5B polymerase | 102%
CNC(=O)c1c(-c2ccc(F)cc2)oc2cc(N(CC(C)O)S(C)(=O)=O)c(OC(C)C)cc12 | - | IC50 | Nonstructural protein 5B | ≤0.5 µM
COc1ccccc1-c1cc(-c2ccc(Cl)cc2)nc2cc(C(=O)O)nn12 | - | IC50 | RNA-dependent RNA polymerase | >10 µM
Cc1cccc(COc2cccc(-c3nc(C(=O)O)c(O)c(=O)[nH]3)c2)c1F | - | IC50 | HCV polymerase | <100 µM
NC(=O)C(CC(=O)O)NC(=O)c1cnn2c(C3CCCCC3)c(-c3ccc(F)cc3F)cnc12 | - | IC50 | RNA-dependent RNA polymerase | <1 µM
O=C(O)c1ccc2c(c1)nc(-c1ccc3nc(-c4ccc[nH]4)ccc3c1)n2C1CCCCC1 | 100 µM | inhibition | NS5B polymerase | 99.7%
Oc1cccc(-c2cnc3c(-c4nn[nH]n4)cnn3c2C2CCCCC2)c1 | - | IC50 | RNA-dependent RNA polymerase | >10 µM
O=C(NCc1cc(Cl)cc(Cl)c1)Nc1cscc1-c1nc(C(=O)O)c(O)c(=O)[nH]1 | - | IC50 | HCV polymerase | <25 µM
Cc1cc(F)ccc1-c1cnc2c(C(=O)O)cnn2c1C1CCCCC1 | - | IC50 | RNA-dependent RNA polymerase | >10 µM
O=C1COc2ccc(-c3ccc4cc(-c5nc6cc(C(=O)O)ccc6n5C5CCCCC5)ccc4n3)cc2N1 | 33 µM | inhibition | NS5B polymerase | 98.78%
O=C(O)c1ccc(-c2ccc(Cl)cc2)c(COc2ccc(-c3cnc4c(-c5nn[nH]n5)cnn4c3C3CCCCC3)cc2)c1 | - | IC50 | RNA-dependent RNA polymerase | <1 µM
COc1ccc(CNC(=O)Nc2cccc(-c3nc(C(=O)O)c(O)c(=O)[nH]3)c2)cc1 | - | IC50 | HCV polymerase | <100 µM
O=C(O)c1ccc2c(c1)nc(-c1ccc3nc(-c4ccccc4-c4ccc(Cl)cc4)ccc3c1)n2C1CCCCC1 | 33 µM | inhibition | NS5B polymerase | 99.05%
O=C(Nc1ccsc1-c1nc(C(=O)O)c(O)c(=O)[nH]1)c1ccc(Cl)cc1 | - | IC50 | HCV polymerase | <25 µM
COc1ccc(-c2ccc(Cl)cc2)c(-c2ccc3cc(-c4nc5cc(C(=O)O)ccc5n4C4CCCCC4C)ccc3n2)c1 | 33 µM | inhibition | NS5B polymerase | 103%
CNC(=O)c1c(-c2ccc(F)cc2)oc2cc(C3CCN(S(C)(=O)=O)C3)c(OC)cc12 | - | IC50 | Nonstructural protein 5B | ≤0.5 µM
CCOC(=O)c1cnc2c(c1)nc(-c1ccc3nc(-c4cc(O)ccc4-c4ccc(Cl)cc4)ccc3c1)n2C1CCCCC1 | 100 µM | inhibition | NS5B polymerase | 72.78%
CNC(=O)c1c(-c2ccc(F)cc2)oc2cc(C3CCCN3C(N)=O)c(OC)cc12 | - | IC50 | Nonstructural protein 5B | ≤0.5 µM
COCCOc1ccc(-c2ccccc2)c(-c2ccc3cc(-c4nc5cc(C(=O)O)ccc5n4C4CCCCC4)ccc3n2)c1 | 100 µM | inhibition | NS5B polymerase | 96.65%
O=C(O)c1c[nH]n2c(=O)c(CC3CCC3)c(-c3ccc(OCc4ccccc4)cc3)nc12 | - | IC50 | RNA-dependent RNA polymerase | 1–10 µM
O=C(O)c1nc(-c2cccc(OCc3ccsc3C(=O)O)c2)[nH]c(=O)c1O | - | IC50 | HCV polymerase | <100 µM
CC(C)N(C(=O)c1ccc2cc(-c3nc4cc(C(=O)O)ccc4n3C3CCCCC3)ccc2n1)c1ccc(Cl)cc1 | 100 µM | inhibition | NS5B polymerase | 102%
O=C(O)c1nc(-c2cc(F)cc(F)c2)[nH]c(=O)c1O | - | IC50 | HCV polymerase | <100 µM
O=C(O)CCC(=O)Nc1cnn2c(C3CCCCC3)c(-c3ccc(OCc4ccccc4)cc3)cnc12 | - | IC50 | RNA-dependent RNA polymerase | 1–10 µM
CC(C)CNC(C(=O)Nc1ccsc1-c1nc(C(=O)O)c(O)c(=O)[nH]1)c1ccccc1 | - | IC50 | HCV polymerase | <25 µM
CNC(=O)c1c(-c2ccc(F)cc2)oc2cc(S(=O)(=O)N3CCC(O)CC3)c(OC(C)C)cc12 | - | IC50 | Nonstructural protein 5B | ≤0.5 µM

For reference, 3 entries again:

SMILES | dose | read-out | protein | value
O=C(NCc1cc(Cl)cc(Cl)c1)Nc1cscc1-c1nc(C(=O)O)c(O)c(=O)[nH]1 | - | IC50 | HCV polymerase | <25 µM
COc1ccc(CNC(=O)Nc2cccc(-c3nc(C(=O)O)c(O)c(=O)[nH]3)c2)cc1 | - | IC50 | HCV polymerase | <100 µM
CCOC(=O)c1cnc2c(c1)nc(-c1ccc3nc(-c4cc(O)ccc4-c4ccc(Cl)cc4)ccc3c1)n2C1CCCCC1 | 100 µM | inhibition | NS5B polymerase | 72.78%